Measured values from several laboratories, pooled; numbers as filed in NIAID ChemDB.

Shared fields: tests in culture; organism: HIV-1; read-out: EC50

ECn: concentration that inhibits the pathogen or its effect by n%. Two numbers with a dash give a range or band. An empty or dashed field is not shown. Lines come from different laboratories, so protocols vary.

SMILES,read by,setting,cell line,changes,strain,result
CCC(=O)c1cn(S(=O)(=O)c2cccc([N+](=O)[O-])c2)c2ccccc12,syncytia / visual reading,,C8166,,IIIB,76.8 µg/mL
Cc1cn([C@@H]2O[C@@H]3CN[C@@]4(OCCO)CS(=O)(=O)O[C@@]34[C@H]2O)c(=O)[nH]c1=O,,,CEM,,IIIB,>250 µM
CCCCCCCCCC(=O)Oc1ccc(COP(=O)(OCc2ccc(OC(=O)CCCCCCCCC)cc2)OP(=O)(O)OC[C@@H]2C=C[C@H](n3cc(C)c(=O)[nH]c3=O)O2)cc1,syncytia / microscopy,,CEM,,IIIB,0.08 µM
COc1cnc(-n2ccc(C)n2)c2[nH]cc(C(=O)C(=O)N3CCC(=C(c4ccccc4)c4cnccn4)CC3)c12,luciferase,,HeLa,,,<1 µM
Cc1c(-c2c(C(OC(C)(C)C)C(=O)O)n(C)c(=O)c3[nH]ccc23)ccc2c1CCCO2,MTS,,MT-4,,IIIB,0.07 µM
Cc1occc1C(=S)Nc1ccc(Cl)c(/C=N/OC(C)(C)C)c1,cytopathic effect / XTT,,CEM + CEM-SS,RT-V108I,NL4-3,0.2 µM
CCCCCCC(=O)Oc1ccc(COP(=O)(OCc2ccc(OC(=O)CCCCCC)cc2)OP(=O)(O)OC[C@@H]2C=C[C@H](n3cc(C)c(=O)[nH]c3=O)O2)cc1,syncytia / microscopy,,CEM,,IIIB,0.47 µM
CCC(=O)c1cn(S(=O)(=O)c2ccc(CC)cc2)c2ccc(C#N)cc12,syncytia / visual reading,,C8166,,IIIB,59.1 µg/mL
CC#Cc1cn([C@@H]2O[C@H](COP(=O)(OCC(Cl)(Cl)Cl)Oc3ccccc3)[C@@H](O)[C@@H]2O)c(=O)[nH]c1=O,plaque count,,HeLa,,HXB2,>50 µM
CCn1c(COC(N)=O)nc(C(C)C)c1Oc1cc(C#N)cc(C#N)c1,β-galactosidase / reporter gene,,HeLaP4,,NL4-3,0.023 µM
COc1cnc(-c2n[nH]c(C)n2)c2[nH]cc(C(=O)C(=O)N3CCC(=C(c4ccccc4)c4nnc(C)o4)CC3)c12,luciferase,,HeLa,,,<1 µM
C=C1[C@H]2CCC(C)=C[C@@H]2[C@@H](C(C)C)[C@H](O)[C@H]1O,luciferase / luminescence,pseudotyped,SupT1,,,37.9 µM
[N-]=[N+]=N[C@]1(CO)O[C@@H](n2cnc3c(=O)[nH]c(N)nc32)C[C@@H]1O,absorbance,,MT-4,,NL4-3,0.0005 µM
CO[C@]12CS(=O)(=O)O[C@@]13C(CN2)O[C@@H](n1cc(C)c(=O)[nH]c1=O)[C@@H]3O[Si](C)(C)C(C)(C)C,,,CEM,,IIIB,5.5 µM
CCc1nc(CO)n(CC)c1Oc1cc(C#N)cc(C#N)c1,β-galactosidase / reporter gene,,HeLaP4,,NL4-3,0.116 µM
CC1CC(C)CN(S(=O)(=O)c2ccccc2[N+](=O)[O-])C1,GFP / fluorescence,,HeLa,,12AG,50 µM
CCCOC(=O)c1cc(NC(=S)OC(C)C)ccc1Cl,syncytia,,CEM,RT-E138K,,1.424 µM
Cc1cn([C@@H]2O[C@@H]3CN[C@@]4(OCc5ccccc5)CS(=O)(=O)O[C@@]34[C@H]2O[Si](C)(C)C(C)(C)C)c(=O)[nH]c1=O,,,CEM,,IIIB,>10 µM
C[C@@H]1CCO[C@H]2Cn3cc(C(=O)NCc4ccc(F)cc4F)c(=O)c(O)c3C(=O)N12,luciferase / luminescence,,TZM-bl,I60M/V72I/L74F/V75I,,0.0007 µM
Cc1cc(C)cc(S(=O)(=O)c2c(C(=O)/C=C/C(N)=O)[nH]c3ccc(Cl)cc23)c1,cytopathic effect / MTT / p24,,MT-4,,IIIB,0.06 µM
CC(=O)c1c(C)nc(-c2ccccc2)nc1NC(=O)c1ccccc1,GFP / fluorescence,,HeLa,,6463-13,0.04 µM
CCOC(=O)c1cc(C(=O)c2ccccc2)n2ccc(C(=O)NCc3ccccc3)cc12,p24 / antigen,,H9,,,50.9 µM
C1CCC(NC2=NCCN2)CCCCC(NC2=NCCN2)C1,entry / fluorescence,,HEK 293,,NL4-3,0.47 µM
COc1cnc(-n2cnc(C)n2)c2[nH]cc(C(=O)C(=O)N3CCC(=C(c4ccccc4)c4nnc(C5CC5)o4)CC3)c12,luciferase,,HeLa,,,<1 µM
OC[C@@H]1CC[C@H](n2cnc3cccnc32)O1,cytopathic effect / MTT / p24,,C8166,,RF,>1000 µM
CC#Cc1cn([C@@H]2O[C@H](COP(=O)(O)Oc3ccc(OC)cc3)[C@@H](O)[C@@H]2O)c(=O)[nH]c1=O,plaque count,,HeLa,,HXB2,>50 µM
C=C(C=O)[C@@H]1CC[C@@]2(C)C1C1CCC3[C@@]4(C)CC[C@H](O)C(C)(C)C4CC[C@@]3(C)[C@]1(C)C[C@@H]2O,luciferase / entry,,CEM.NKR-CCR5,,,1 µM
CCC(=O)c1cn(S(=O)(=O)c2ccc(CC)cc2)c2ccccc12,syncytia / visual reading,,C8166,,IIIB,3.4 µg/mL
CC#Cc1cn([C@@H]2O[C@H](COP(=O)(O)Oc3ccc(F)cc3)[C@@H](O)[C@@H]2O)c(=O)[nH]c1=O,plaque count,,HeLa,,HXB2,>50 µM
O=C1Nc2ccc(Cl)cc2C(OCC=C(Cl)Cl)(C(F)(F)F)O1,,,,RT-K103N,,<0.242 µM
CCOC(=O)c1cc(NC(=S)OC(C)C)ccc1C,syncytia,,CEM,RT-V106A,,≥35.54 µM
COc1cnc(-c2ccc(C(=O)OC(C)C)cc2)c2[nH]cc(C(=O)C(=O)N3CCC(=C(C#N)c4ccccc4)CC3)c12,luciferase,,HeLa,,,<1 µM
CCOC(=O)c1cc(C(=O)c2ccccc2)n2ccc(C(=O)NCc3cccnc3)cc12,p24 / antigen,,H9,,,54.3 µM
CC(C)OC(=O)c1cc(NC(=S)OC(C)C)ccc1Cl,syncytia,,CEM,RT-E138K,IIIB,1.24 µM
CCc1nc(C)n(CC)c1Oc1cc(C#N)cc(C#N)c1,β-galactosidase / reporter gene,,HeLaP4,,NL4-3,0.032 µM
CC(C)C1=C2[C@H]3CC[C@@H]4[C@@]5(C)CC[C@H](OC(=O)[C@H]6C[C@@H](C(=O)O)C6(C)C)C(C)(C)[C@@H]5CC[C@@]4(C)[C@]3(C)CC[C@@]2(CC(=O)NC[C@@H](C)NC(=O)c2ccc(Cl)cc2)CC1=O,p24 / ELISA,,MT-2,,92HT599,<1 µM
CCc1c(Sc2ccccc2)n(COCCO)c(=O)[nH]c1=O,MTT / syncytia,,MT-2,,IIIB,0.027 µM
O=C(NCc1ccc(F)cc1F)c1cn2c(c(O)c1=O)C(=O)N1C3CC(COC1C2)C3,GFP,100% human serum,MT-4,,NL4-3,0.086 µM
[N-]=[N+]=N[C@]1(CO)O[C@@H](n2cnc3c(N)nc(N)nc32)C[C@@H]1O,absorbance,,MT-4,,NL4-3,0.003 µM
CCO[C@]12CS(=O)(=O)O[C@@]13[C@@H](CN2)O[C@@H](Sc1ccccc1)[C@@H]3O[Si](C)(C)C(C)(C)C,,,CEM,,IIIB,>10 µM
CCC(=O)c1cn(S(=O)(=O)c2ccc(C)cc2)c2cc(C)ccc12,syncytia / visual reading,,C8166,,IIIB,11.8 µg/mL
Cc1ccc(CNC(=O)C[C@@]23CC[C@]4(C)[C@H](CC[C@@H]5[C@@]6(C)CC[C@H](OC(=O)[C@H]7C[C@@H](C(=O)O)C7(C)C)C(C)(C)[C@@H]6CC[C@]54C)C2=C(C(C)C)C(=O)C3)cn1,p24 / ELISA,,MT-2,,92HT599,<1 µM
COc1cc(N)c2ncccc2c1Sc1ccc2ccccc2c1,luciferase / β-galactosidase,,,,,42 µM
Cc1cn([C@@H]2O[C@@H]3CN[C@@]4(OCC5CCOC5)CS(=O)(=O)O[C@@]34[C@H]2O[Si](C)(C)C(C)(C)C)c(=O)[nH]c1=O,,,MT-4,,IIIB,>10 µM
COc1ccc2c(c1)c(CC(=O)O)c(C)n2C(=O)c1ccc(Cl)cc1,XTT / p24,,MT-4,,IIIB,10 µM
CC=CCOc1cc(NC(=S)c2ccoc2C)ccc1OC,cytopathic effect / XTT,,CEM + CEM-SS,RT-L100I,NL4-3,0.6 µM
O=C(Nc1nc2ccc(C(F)(F)F)cc2s1)c1cnc(C(F)(F)F)s1,flow cytometry,,PBMC,,IIIB,0.738 µM
CC(C)C1=C2[C@H]3CC[C@@H]4[C@@]5(C)CC[C@H](OC(=O)[C@H]6C[C@@H](C(=O)O)C6(C)C)C(C)(C)[C@@H]5CC[C@@]4(C)[C@]3(C)CC[C@@]2(CCNCc2ccc(Cl)cc2OCCN2CCOCC2)CC1=O,p24 / ELISA,,MT-2,,92HT599,<1 µM
CCCCCCCCCC(=O)Oc1ccc(COP(=O)(OCCC#N)OP(=O)(O)OC[C@@H]2C=C[C@H](n3cc(C)c(=O)[nH]c3=O)O2)cc1,syncytia / microscopy,,CEM,,IIIB,0.99 µM
CCOC(=O)c1cc(C(=O)c2ccccc2)n2ccc(C(=O)N[C@H](C)c3ccccc3)cc12,p24 / antigen,,H9,,,41 µM
COc1cc2c(cc1Cc1cccc(Cl)c1F)c(=O)c(C(=O)O)cn2[C@H](CO)C(C)C,GFP,,CEM-GXR,T97A E138K G140S Q148H,NL4-3,1 µM
CC(C)=CCOc1cc(NC(=S)c2ccoc2C)ccc1Cl,syncytia,,CEM,RT-E138K,IIIB,0.015 µM
CC#Cc1cn([C@@H]2O[C@H](COP(=O)(O)OCCCCCCCCCCCC)[C@@H](O)[C@@H]2O)c(=O)[nH]c1=O,plaque count,,HeLa,,HXB2,>5 µM
OB(O)CCCCn1cnc2c(Cl)nc(Cl)nc21,plaque count,,CEM + CEM-SS,,IIIB,0.99 µM
CC(C)C1=C2[C@H]3CC[C@@H]4[C@@]5(C)CC[C@H](OC(=O)[C@H]6C[C@@H](C(=O)O)C6(C)C)C(C)(C)[C@@H]5CC[C@@]4(C)[C@]3(C)CC[C@@]2(CC(=O)NC(F)(F)CNC(=O)c2ccc(Cl)cc2)CC1=O,p24 / ELISA,,MT-2,,92HT599,<1 µM
CC#Cc1cn([C@@H]2O[C@H](COP(=O)(OCC)Oc3ccccc3)[C@@H](O)[C@@H]2O)c(=O)[nH]c1=O,plaque count,,HeLa,,HXB2,>50 µM
Cc1occc1C(=S)Nc1ccc(Cl)c(C(=O)OC(C)C)c1,cytopathic effect / XTT,,CEM + CEM-SS,RT-K103N,NL4-3,5.5 µM
C[C@@H]1CCO[C@H]2Cn3cc(C(=O)NCc4ccc(F)cc4F)c(=O)c(O)c3C(=O)N12,GFP,,CEM-GXR,,NL4-3,0.0011 µM
CCOC(=O)c1cc(C(=O)c2ccc(N)cc2)n2ccc(C(=O)NCc3ccccn3)cc12,p24 / antigen,,H9,,,108.7 µM
Cc1cn([C@H]2C[C@H](F)[C@@H](CO)O2)c(=O)[nH]c1=O,single cycle,,MAGI,,IIIB,<0.1 µg/mL
C=C[C@]1(CO)O[C@@H](n2cnc3c(=O)[nH]c(N)nc32)C[C@@H]1O,absorbance,,MT-4,,NL4-3,0.004 µM
Cc1cn(-c2ccc(C(=O)NC(C)(C)CNC(=O)C[C@@]34CC[C@]5(C)[C@H](CC[C@@H]6[C@@]7(C)CC[C@H](OC(=O)[C@H]8C[C@@H](C(=O)O)C8(C)C)C(C)(C)[C@@H]7CC[C@]65C)C3=C(C(C)C)C(=O)C4)cc2)cn1,p24 / ELISA,,MT-2,,92HT599,<1 µM
CC1(C)Oc2ccc3c(=O)cc(NCc4ccncc4)oc3c2[C@@H](OC(=O)C23CC[C@@](C)(C(=O)O2)C3(C)C)[C@H]1OC(=O)C12CC[C@](C)(C(=O)O1)C2(C)C,luciferase / fluorescence,,TZM-bl,,NL4-3,21 µM
Cc1cn([C@@H]2O[C@H](CO)C3(OS(=O)(=O)C=C3N)[C@H]2O[Si](C)(C)C(C)(C)C)c(=O)[nH]c1=O,cytopathic effect / trypan blue,,MT-4,,HE,>40 µg/mL
CCOC(=O)c1cc(C(=O)c2cccc(N)c2)n2ccc(C(=O)NCc3ccccn3)cc12,p24 / antigen,,H9,,,22.3 µM
COc1cnc(-n2cnc(C)n2)c2[nH]cc(C(=O)C(=O)N3CCC(=C(c4ccccc4)c4cccc(CO)c4)CC3)c12,luciferase,,HeLa,,,<1 µM
N#C[C@]1(CO)O[C@@H](n2cnc3c(N)nc(N)nc32)C[C@@H]1O,absorbance,,MT-4,,NL4-3,0.0003 µM
CC#Cc1cn([C@@H]2O[C@H](COP(=O)(O)OCCCCCCCCCCCCCCCC)[C@@H](O)[C@@H]2O)c(=O)[nH]c1=O,plaque count,,HeLa,,HXB2,>5 µM
CC[C@]1(CO)O[C@@H](n2cnc3c(=O)[nH]c(N)nc32)C[C@@H]1O,absorbance,,MT-4,,NL4-3,0.006 µM
CCS[C@]12CS(=O)(=O)O[C@@]13[C@@H](CN2)O[C@@H](n1cc(C)c(=O)[nH]c1=O)[C@@H]3O,,,MT-4,,IIIB,111 µM
CC(C)C1=C2[C@H]3CC[C@@H]4[C@@]5(C)CC[C@H](OC(=O)[C@H]6C[C@@H](C(=O)O)C6(C)C)C(C)(C)[C@@H]5CC[C@@]4(C)[C@]3(C)CC[C@@]2(CC(=O)NCc2ccccc2)CC1=O,p24 / ELISA,,MT-2,,92HT599,<1 µM
COc1cnc(Cl)c2[nH]cc(C(=O)C(=O)N3CCC(=C(C(N)=O)c4ccccc4)CC3)c12,luciferase,,HeLa,,,1–5 µM
Nc1nc2c(ncn2COCCO)c(=O)[nH]1,plaque count,,HeLa,,HXB2,>100 µM
CCC(C)OC(=S)Nc1ccc(Cl)c(C(=O)OC(C)(C)C)c1,syncytia,,CEM,RT-E138K,,0.349 µM